Measurements reported in PubChem BioAssay AID624099 (ICCB-Longwood, 2012)

Test: 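Knock-downs relieving repression by E2 of an HPV18 LCR luciferase reporter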 (primary screen)
Cells: human C33A cervical carcinoma cells (HPV-negative) stably expressing BPV1 E2 and an HPV18 LCR luciferase reporter
Knock-down reagent: siRNA pool against human genes, 40 nM
Time to read-out: 72 h
Read-out: 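HPV18 LCR reporter light per well, converted to plate-wise z-scores that exclude control wells, and averaged over triplicate plates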
Direction: mean z-score and z-score: higher = stronger reporter signal, weaker E2 silencing
Active means: 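Mean z ≥ 2 together with z ≥ 2 in two or more of the three replicates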
In all, the deposit lists about 21,000 reagents; this is a part drawn at random. 497 of all reagents (2.4%) were called active. 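Higher z means weaker E2 silencing; only reporter increases were scored, and knock-downs that hurt cell survival may mask genuine repressor factors.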 No sequences are given here.

HTR3E (5-hydroxytryptamine receptor 3E) scored mean z-score 1.06; z-score, replicate A = 0.68; z-score, replicate B = 0.98; z-score, replicate C = 1.51; inactive.
With knock-down of HOXB6 (homeobox B6) the results were mean z-score 0.46; z-score, replicate A = 0.52; z-score, replicate B = 0.43; z-score, replicate C = 0.42; inactive.
After knock-down of RHOQ (ras homolog family member Q) the results were mean z-score 1.11; z-score, replicate A = 0.84; z-score, replicate B = 1.29; z-score, replicate C = 1.2; inactive.
For DBNDD1 (dysbindin domain containing 1), the values are mean z-score 0.93; z-score, replicate A = 0.82; z-score, replicate B = 0.86; z-score, replicate C = 1.13; inactive.
Against HSD11B1L (hydroxysteroid 11-beta dehydrogenase 1 like) the deposit lists mean z-score 0.06; z-score, replicate A = -0.27; z-score, replicate B = -0.02; z-score, replicate C = 0.46; inactive.
CRTAM (cytotoxic and regulatory T cell molecule) showed mean z-score -1.06; z-score, replicate A = -1.14; z-score, replicate B = -1.05; z-score, replicate C = -0.99; inactive.
CCDC198 (coiled-coil domain containing 198) gave mean z-score -0.65; z-score, replicate A = 0.2; z-score, replicate B = -0.25; z-score, replicate C = -1.91; inactive.
TSEN34 (tRNA splicing endonuclease subunit 34) scored mean z-score 1.41; z-score, replicate A = 1.25; z-score, replicate B = 2.45; z-score, replicate C = 0.53; inactive.

Laid out differently: entries from further up.
{"target":"HOXB6 (homeobox B6)","mean z-score":0.46,"z-score, replicate A":0.52,"z-score, replicate B":0.43,"z-score, replicate C":0.42,"Call":"inactive"}
{"target":"RHOQ (ras homolog family member Q)","mean z-score":1.11,"z-score, replicate A":0.84,"z-score, replicate B":1.29,"z-score, replicate C":1.2,"Call":"inactive"}

Next entries follow.
Silencing of CTSB (cathepsin B) came out at: mean z-score 0.76; z-score, replicate A = 0.61; z-score, replicate B = 1.08; z-score, replicate C = 0.59; inactive.
After knock-down of TIGD2 (tigger transposable element derived 2) the results were mean z-score 0.23; z-score, replicate A = -0.21; z-score, replicate B = 0.48; z-score, replicate C = 0.42; inactive.
Depletion of TBC1D3F (TBC1 domain family member 3F) gave: mean z-score -0.1; z-score, replicate A = 0.16; z-score, replicate B = -0.22; z-score, replicate C = -0.24; inactive.
Silencing of TMEM235 (transmembrane protein 235) resulted in: mean z-score 0.04; z-score, replicate A = -0.41; z-score, replicate B = 0.18; z-score, replicate C = 0.34; inactive.
Depletion of LOC387826 (retired record) gave: mean z-score -0.36; z-score, replicate A = -0.1; z-score, replicate B = -0.45; z-score, replicate C = -0.53; inactive.
For GID8 (GID complex subunit 8 homolog), the values are mean z-score 0.58; z-score, replicate A = 0.93; z-score, replicate B = 0.87; z-score, replicate C = -0.06; inactive.
